PubChem BioAssay AID1259414 | Drosophila RNAi Screening Center, 2018

- Test: 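Fly genes that alter Wolbachia amount inside host cells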 (primary screen)
- Cells: Drosophila JW18 cells infected with Wolbachia
- Knock-down reagent: long dsRNA against Drosophila genes, 0.25 µg dsRNA per well of a 384-well plate
- Time to read-out: 5 days
- Conditions: cells persistently infected with Wolbachia before knock-down; no added drug
- Measurement: 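Automated imaging of bacterial rRNA staining divided by host cell count, reported as plate-normalised robust z-score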
- Direction: Wolbachia per cell robust z: higher = more Wolbachia per host cell than the plate typical
- Rule for the call: 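Active if absolute robust z reaches 1.5 in two or more of three replicates, leaving out multi- or no-target dsRNAs, genes unexpressed in JW18 and A1 wells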
In all, the deposit lists about 24,000 reagents; this is an unselected part of those that have a named target and a result. Of all reagents, about 1,210 (5%) got an active call. 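Inactive calls also include excluded dsRNAs with several or no targets, genes unexpressed in JW18, and well A1, regardless of score.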 Reagents against one gene are numbered here. A plus sign joins genes that one reagent is predicted to hit.

target gene	reagent	Wolbachia per cell robust z, rep 1	Wolbachia per cell robust z, rep 2	Wolbachia per cell robust z, rep 3	Call
Pvf1 (GeneID 32876)	1	0.88	-1.52	-0.284	inactive
CG1486 (GeneID 33108)	1	0.41	1.98	0.885	inactive
CG1486 (GeneID 33108)	2	1.8	1.04	-0.304	inactive
CG30039 (GeneID 246411)	1	0.875	0.566	-0.101	inactive
CG30039 (GeneID 246411)	2	-0.488	0.735	-0.169	inactive
Alms1a (GeneID 31393)	1	1.16	-0.936	0.924	inactive
Rbm13 (GeneID 31818)	1	-5.93	0.0668	0.442	inactive
Rbm13 (GeneID 31818)	2	-8.62	-0.185	0.381	inactive
CG42382 (GeneID 35938)	1	1.31	-4.17	0.317	inactive
bisc (GeneID 37443)	1	0.33	-4.05	0.243	inactive
bisc (GeneID 37443)	2	0.338	0.461	0.89	inactive
asRNA:CR43637 (GeneID 12798097)	1	-0.743	0.737	0.136	inactive
polyph (GeneID 36161)	1	-0.245	-0.756	0.33	inactive
CaBP1 (GeneID 34976)	1	-0.024	0.408	-0.435	inactive
CG15888 (GeneID 41630)	1	0.632	0.506	0.368	inactive
CG15888 (GeneID 41630)	2	-2.52	-1.11	0.367	inactive
CG42598 + CG41284	1	-0.96	-1.25	-1.24	inactive
Ag5r (GeneID 44631)	1	-3.28	0.134	0.228	inactive
Ag5r (GeneID 44631)	2	-0.674	0.32	-0.637	inactive
Axud1 (GeneID 33419)	1	0.136	0.392	0.227	inactive
CG15012 (GeneID 38529)	1	-2.56	0.37	-2.12	active
CG31999 (GeneID 43777)	1	-3.56	-5.96	-4.18	inactive
CG31999 (GeneID 43777)	2	0.411	0.445	-0.256	inactive
mRpS29 (GeneID 37563)	1	-0.0587	0.41	-0.093	inactive
mRpS29 (GeneID 37563)	2	-2.43	-1.07	-0.568	inactive
MED17 (GeneID 42175)	1	-1.83	0.324	-2.67	active
CG4686 (GeneID 42361)	1	-0.27	-1.47	-0.0636	inactive
Prx6c (GeneID 36098)	1	-0.719	0.307	-0.0712	inactive
Prx6c (GeneID 36098)	2	-0.857	1.25	1.06	inactive
CG11828 (GeneID 43416)	1	0.268	-0.231	-0.453	inactive
CG11828 (GeneID 43416)	2	0.425	0.504	0.522	inactive
CG11828 (GeneID 43416)	3	-1.05	0.173	0.143	inactive
Asciz (GeneID 38381)	1	-2.3	0.939	0.538	inactive
Pcmt (GeneID 40668)	1	-0.642	-3.53	0.05	inactive
CG33769 (GeneID 3772499)	1	-0.334	0.415	0.323	inactive
CG3626 (GeneID 31377)	1	-0.111	0.406	0.158	inactive
CG3626 (GeneID 31377)	2	-0.349	-0.116	1.82	inactive
ste24c + CG30461	1	-3.21	-1.03	0.313	inactive
ste24c + CG30461	2	0.0316	-5.53	-0.0943	inactive
CG8209 (GeneID 38888)	1	0.385	0.506	0.186	inactive
CG8209 (GeneID 38888)	2	0.759	-0.942	-0.0206	inactive
CG31360 (GeneID 318698)	1	-0.702	-0.671	-0.06	inactive
CG17030 (GeneID 38591)	1	0.291	-0.0584	-4.77	inactive
GABA-B-R3 (GeneID 33248)	1	0.751	0.123	-0.0917	inactive
GABA-B-R3 (GeneID 33248)	2	-0.176	-0.0166	-0.25	inactive
CG5742 (GeneID 37072)	1	-0.0466	-0.503	-1.21	inactive
CG5742 (GeneID 37072)	2	-0.639	0.318	1.35	inactive
Slbp (GeneID 43448)	1	0.453	-3.51	0.45	inactive
CG17350 (GeneID 35210)	1	-1.39	-0.102	0.362	inactive
CG10469 (GeneID 38696)	1	0.219	-0.572	0.149	inactive
CG10469 (GeneID 38696)	2	-0.81	-1.87	-1.25	inactive
CG5160 (GeneID 34015)	1	0.464	0.193	1.13	inactive
CG5160 (GeneID 34015)	2	0.331	-0.29	1.19	inactive
CG14958 (GeneID 38387)	1	0.456	1.37	1.82	inactive
Ir11a (GeneID 32189)	1	0.431	-0.0934	0.295	inactive
CG42371 + CG15386	1	-5.92	-2.27	-0.784	inactive
CG13739 (GeneID 35957)	1	-0.364	-0.068	0.261	inactive
CG13739 (GeneID 35957)	2	0.436	0.177	0.218	inactive
CAH9 (GeneID 43264)	1	0.709	-2.34	-0.368	inactive
CAH9 (GeneID 43264)	2	-0.203	-0.416	0.328	inactive
CG14423 (GeneID 31287)	1	-0.0613	-0.349	0.709	inactive
CG14423 (GeneID 31287)	2	1.27	0.706	0.931	inactive
Grl36b (GeneID 318940)	1	1.38	0.385	-0.421	inactive
gdl + gdl-ORF39	1	-2.64	-0.744	-0.29	inactive
ine (GeneID 33659)	1	0.914	-7.59	1.53	inactive
ine (GeneID 33659)	2	-3.3	0.666	0.623	inactive
fipi (GeneID 33676)	1	0.341	-1.05	-0.269	inactive
fipi (GeneID 33676)	2	0.683	2.26	1.92	inactive

Part of the list above, set out differently.
{"target gene":"ste24c + CG30461","reagent":2,"Wolbachia per cell robust z, rep 1":0.0316,"Wolbachia per cell robust z, rep 2":-5.53,"Wolbachia per cell robust z, rep 3":-0.0943,"Call":"inactive"}
{"target gene":"CG8209 (GeneID 38888)","reagent":1,"Wolbachia per cell robust z, rep 1":0.385,"Wolbachia per cell robust z, rep 2":0.506,"Wolbachia per cell robust z, rep 3":0.186,"Call":"inactive"}
{"target gene":"CG8209 (GeneID 38888)","reagent":2,"Wolbachia per cell robust z, rep 1":0.759,"Wolbachia per cell robust z, rep 2":-0.942,"Wolbachia per cell robust z, rep 3":-0.0206,"Call":"inactive"}
{"target gene":"CG31360 (GeneID 318698)","reagent":1,"Wolbachia per cell robust z, rep 1":-0.702,"Wolbachia per cell robust z, rep 2":-0.671,"Wolbachia per cell robust z, rep 3":-0.06,"Call":"inactive"}
{"target gene":"CG17030 (GeneID 38591)","reagent":1,"Wolbachia per cell robust z, rep 1":0.291,"Wolbachia per cell robust z, rep 2":-0.0584,"Wolbachia per cell robust z, rep 3":-4.77,"Call":"inactive"}
{"target gene":"GABA-B-R3 (GeneID 33248)","reagent":1,"Wolbachia per cell robust z, rep 1":0.751,"Wolbachia per cell robust z, rep 2":0.123,"Wolbachia per cell robust z, rep 3":-0.0917,"Call":"inactive"}
{"target gene":"GABA-B-R3 (GeneID 33248)","reagent":2,"Wolbachia per cell robust z, rep 1":-0.176,"Wolbachia per cell robust z, rep 2":-0.0166,"Wolbachia per cell robust z, rep 3":-0.25,"Call":"inactive"}
{"target gene":"CG5742 (GeneID 37072)","reagent":1,"Wolbachia per cell robust z, rep 1":-0.0466,"Wolbachia per cell robust z, rep 2":-0.503,"Wolbachia per cell robust z, rep 3":-1.21,"Call":"inactive"}
{"target gene":"CG5742 (GeneID 37072)","reagent":2,"Wolbachia per cell robust z, rep 1":-0.639,"Wolbachia per cell robust z, rep 2":0.318,"Wolbachia per cell robust z, rep 3":1.35,"Call":"inactive"}
{"target gene":"Slbp (GeneID 43448)","reagent":1,"Wolbachia per cell robust z, rep 1":0.453,"Wolbachia per cell robust z, rep 2":-3.51,"Wolbachia per cell robust z, rep 3":0.45,"Call":"inactive"}
{"target gene":"CG17350 (GeneID 35210)","reagent":1,"Wolbachia per cell robust z, rep 1":-1.39,"Wolbachia per cell robust z, rep 2":-0.102,"Wolbachia per cell robust z, rep 3":0.362,"Call":"inactive"}
